{"sequences": {"note": "The chains behind the UniProt entries cited, without tags or fusion partners. Residues count along the entry.", "UniProt P04757, 26-499 limits assumed": "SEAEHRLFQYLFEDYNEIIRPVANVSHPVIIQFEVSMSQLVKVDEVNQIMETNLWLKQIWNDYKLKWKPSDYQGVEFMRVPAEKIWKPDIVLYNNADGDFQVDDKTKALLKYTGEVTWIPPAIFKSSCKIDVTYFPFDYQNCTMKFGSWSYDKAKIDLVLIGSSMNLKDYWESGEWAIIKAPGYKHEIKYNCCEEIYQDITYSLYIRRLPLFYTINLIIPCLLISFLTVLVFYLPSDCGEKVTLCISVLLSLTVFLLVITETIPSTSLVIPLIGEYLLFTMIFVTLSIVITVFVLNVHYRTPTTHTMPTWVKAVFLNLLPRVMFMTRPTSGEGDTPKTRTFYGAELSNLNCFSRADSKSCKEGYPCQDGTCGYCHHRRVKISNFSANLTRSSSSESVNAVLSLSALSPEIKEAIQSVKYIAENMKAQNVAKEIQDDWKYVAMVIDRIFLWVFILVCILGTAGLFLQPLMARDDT", "UniProt P12392, 21-495 limits assumed": "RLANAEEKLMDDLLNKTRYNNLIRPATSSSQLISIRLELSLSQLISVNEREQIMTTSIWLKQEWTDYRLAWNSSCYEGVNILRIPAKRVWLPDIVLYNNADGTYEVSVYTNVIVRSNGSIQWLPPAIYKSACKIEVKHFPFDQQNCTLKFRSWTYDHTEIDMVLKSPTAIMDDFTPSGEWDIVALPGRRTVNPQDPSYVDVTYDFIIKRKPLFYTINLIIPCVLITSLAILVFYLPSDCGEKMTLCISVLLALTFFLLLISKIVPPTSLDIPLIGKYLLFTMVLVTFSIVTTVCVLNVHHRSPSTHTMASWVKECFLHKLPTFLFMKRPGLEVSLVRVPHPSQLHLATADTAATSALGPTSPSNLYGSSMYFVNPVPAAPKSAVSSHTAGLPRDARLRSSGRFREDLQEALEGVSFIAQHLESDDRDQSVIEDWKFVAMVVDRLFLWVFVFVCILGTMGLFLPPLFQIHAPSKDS"}, "source": "paper PMC6025358", "about": "(Marine Drugs, 2018)", "biological_target": "rat α3β4 nAChR (Rattus norvegicus, UniProt P04757+P12392)", "details": "rat α3β4 nAChR in Xenopus oocytes; for Inhibition of ACh-evoked α3β4 nAChR-mediated current: peptide at 1 μM, mean, n = 3–6; for IC50: read-out: α3β4 nAChR, IC50, two-electrode voltage clamp at −70 mV, 100 μM ACh 1-s pulses, 5 min toxin incubation, 95% confidence interval in parentheses, 3 to 8 oocytes"}
{"smiles": "CC[C@H](C)[C@@H]1NC(=O)[C@H](C)NC(=O)[C@H](CO)NC(=O)[C@@H]2CSSC[C@H](NC(=O)CN)C(=O)N[C@@H](CSSC[C@@H](C(N)=O)NC(=O)[C@H]([C@@H](C)CC)NC(=O)[C@@H]3CCCN3C(=O)[C@H](CO)NC1=O)C(=O)N[C@@H](CO)C(=O)N[C@@H](Cc1c[nH]cn1)C(=O)N1CCC[C@H]1C(=O)N[C@@H](C(C)C)C(=O)N2", "values": [{"measurement": "Inhibition of ACh-evoked α3β4 nAChR-mediated current", "value": "> 80", "unit": "%"}, {"measurement": "IC50", "value": 69.1, "unit": "nM"}]}
{"smiles": "CC[C@H](C)[C@@H]1NC(=O)[C@@H]2CCCN2C(=O)[C@H](CO)NC(=O)[C@H](CCC(N)=O)NC(=O)[C@H](C)NC(=O)[C@H](CO)NC(=O)[C@@H]2CSSC[C@H](NC(=O)CN)C(=O)N[C@@H](CSSC[C@@H](C(N)=O)NC1=O)C(=O)N[C@@H](CO)C(=O)N[C@@H](Cc1c[nH]cn1)C(=O)N1CCC[C@H]1C(=O)N[C@@H](C(C)C)C(=O)N2", "values": [{"measurement": "Inhibition of ACh-evoked α3β4 nAChR-mediated current", "value": "nearly no inhibition"}, {"measurement": "IC50", "value": "> 10000", "unit": "nM"}]}
{"smiles": "CC[C@H](C)[C@@H]1NC(=O)[C@@H]2CCCN2C(=O)[C@H](CO)NC(=O)[C@H](CCC(=O)O)NC(=O)[C@H](C)NC(=O)[C@H](CO)NC(=O)[C@@H]2CSSC[C@H](NC(=O)CN)C(=O)N[C@@H](CSSC[C@@H](C(N)=O)NC1=O)C(=O)N[C@@H](CO)C(=O)N[C@@H](Cc1c[nH]cn1)C(=O)N1CCC[C@H]1C(=O)N[C@@H](C(C)C)C(=O)N2", "values": [{"measurement": "Inhibition of ACh-evoked α3β4 nAChR-mediated current", "value": "nearly no inhibition"}, {"measurement": "IC50", "value": "> 10000", "unit": "nM"}]}
{"smiles": "CC[C@H](C)[C@@H]1NC(=O)[C@@H]2CCCN2C(=O)[C@H](CO)NC(=O)[C@H](CC(C)C)NC(=O)[C@H](C)NC(=O)[C@H](CO)NC(=O)[C@@H]2CSSC[C@H](NC(=O)CN)C(=O)N[C@@H](CSSC[C@@H](C(N)=O)NC1=O)C(=O)N[C@@H](CO)C(=O)N[C@@H](Cc1c[nH]cn1)C(=O)N1CCC[C@H]1C(=O)N[C@@H](C(C)C)C(=O)N2", "values": [{"measurement": "Inhibition of ACh-evoked α3β4 nAChR-mediated current", "value": "> 80", "unit": "%"}, {"measurement": "IC50", "value": 257, "unit": "nM"}]}
{"smiles": "CC[C@H](C)[C@@H]1NC(=O)[C@@H]2CCCN2C(=O)[C@H](CO)NC(=O)[C@H](C)NC(=O)[C@H](C)NC(=O)[C@H](CO)NC(=O)[C@@H]2CSSC[C@H](NC(=O)CN)C(=O)N[C@@H](CSSC[C@@H](C(N)=O)NC1=O)C(=O)N[C@@H](CO)C(=O)N[C@@H](Cc1cnc[nH]1)C(=O)N1CCC[C@H]1C(=O)N[C@@H](C(C)C)C(=O)N2", "values": [{"measurement": "IC50", "value": "> 10000", "unit": "nM"}]}
{"smiles": "CC[C@H](C)[C@@H]1NC(=O)[C@@H]2CCCN2C(=O)[C@H](CO)NC(=O)[C@H](C)NC(=O)[C@H](C)NC(=O)[C@H](CO)NC(=O)[C@@H]2CSSC[C@H](NC(=O)CN)C(=O)N[C@@H](CSSC[C@@H](C(N)=O)NC1=O)C(=O)N[C@@H](CO)C(=O)N[C@@H](Cc1c[nH]cn1)C(=O)N1CCC[C@H]1C(=O)N[C@@H](C(C)C)C(=O)N2", "values": [{"measurement": "Inhibition of ACh-evoked α3β4 nAChR-mediated current", "value": "nearly no inhibition"}]}
{"smiles": "CC[C@H](C)[C@@H]1NC(=O)[C@@H]2CCCN2C(=O)[C@H](CO)NC(=O)[C@H](C(C)C)NC(=O)[C@H](C)NC(=O)[C@H](CO)NC(=O)[C@@H]2CSSC[C@H](NC(=O)CN)C(=O)N[C@@H](CSSC[C@@H](C(N)=O)NC1=O)C(=O)N[C@@H](CO)C(=O)N[C@@H](Cc1c[nH]cn1)C(=O)N1CCC[C@H]1C(=O)N[C@@H](C(C)C)C(=O)N2", "values": [{"measurement": "IC50", "value": 980, "unit": "nM"}]}
{"smiles": "CC[C@H](C)[C@@H]1NC(=O)[C@@H]2CCCN2C(=O)[C@H](CO)NC(=O)[C@H](CCCNC(=N)N)NC(=O)[C@H](C)NC(=O)[C@H](CO)NC(=O)[C@@H]2CSSC[C@H](NC(=O)CN)C(=O)N[C@@H](CSSC[C@@H](C(N)=O)NC1=O)C(=O)N[C@@H](CO)C(=O)N[C@@H](Cc1c[nH]cn1)C(=O)N1CCC[C@H]1C(=O)N[C@@H](C(C)C)C(=O)N2", "values": [{"measurement": "Inhibition of ACh-evoked α3β4 nAChR-mediated current", "value": "nearly no inhibition"}, {"measurement": "IC50", "value": "> 10000", "unit": "nM"}]}
{"smiles": "CC[C@H](C)[C@@H]1NC(=O)[C@@H]2CCCN2C(=O)[C@H](CO)NC(=O)[C@H](CCCCN)NC(=O)[C@H](C)NC(=O)[C@H](CO)NC(=O)[C@@H]2CSSC[C@H](NC(=O)CN)C(=O)N[C@@H](CSSC[C@@H](C(N)=O)NC1=O)C(=O)N[C@@H](CO)C(=O)N[C@@H](Cc1c[nH]cn1)C(=O)N1CCC[C@H]1C(=O)N[C@@H](C(C)C)C(=O)N2", "values": [{"measurement": "Inhibition of ACh-evoked α3β4 nAChR-mediated current", "value": "nearly no inhibition"}, {"measurement": "IC50", "value": "> 10000", "unit": "nM"}]}
